This is an account of results in publication PMC12604803, “Novel ACE2 binding in bat merbecoviruses expands potential host range” (2025).

What all share (experiment): flow cytometry on cells
On the technique in general: A flow cytometer gives signals particle by particle.

The target in test [1] is HKU5 RBD-hFc (UniProt A3EXD0). As to conditions: read off a plot; for percent of parent (% relative to WT): parent: est. 100; for response (% of Positive cells): parent: est. 1.0.
Test [2] has as its target BtVs-SC2013 RBD-hFc. The following applies: parent: est. 100; read off a plot.
Test [3] addresses HKU25 RBD-hFc. As to conditions: parent: est. 100; read off a plot.

Regarding Pipistrellus abramus ACE2 H34S, the percent of parent (% relative to WT) in test [1] was 81.

On to Pipistrellus abramus ACE2 N353D, for which the percent of parent (% relative to WT) in test [1] came out at 84.

For Mink ACE2 R357A, the percent of parent (% relative to WT) in test [2] amounted to 6; in test [3], 1.

As to Pipistrellus abramus ACE2 RDS328-330NNS, the percent of parent (% relative to WT) in test [1] is 1.

As to Pipistrellus abramus ACE2 V30D, the percent of parent (% relative to WT) in test [1] was 88.

Regarding Pipistrellus abramus ACE2 NQS386-388KQP, in test [1], the percent of parent (% relative to WT) turned out to be 80.

As to “Pipistrellus pipistrellus ACE2 NNS329-331RDS”, the response (% of Positive cells) in test [1] stood at 0.25.

In the case of “Pipistrellus pipistrellus ACE2 Q325P; NNS329-331RDS”, the response (% of Positive cells) in test [1] stood at 0.2.

For Pipistrellus pipistrellus ACE2 E353K, the response (% of Positive cells) in test [1] came to 0.8.

As for Pipistrellus abramus ACE2 N321S, the percent of parent (% relative to WT) in test [1] came to 82.

Take Pipistrellus abramus ACE2 K352E: the percent of parent (% relative to WT) in test [1] was found to be 1.

Take “Pipistrellus pipistrellus ACE2 NNS329-331RDS; E353K”: the response (% of Positive cells) in test [1] amounted to 0.6.

Turning to Mink ACE2 E37A, the percent of parent (% relative to WT) in test [2] was determined as 15; in test [3], 2.

In the case of Pipistrellus abramus ACE2 S388P, the percent of parent (% relative to WT) in test [1] is 89.

Turning to Mink ACE2 K353A, the percent of parent (% relative to WT) in test [2] worked out at 7; in test [3], 2.

For “Pipistrellus pipistrellus ACE2 Q325P; NNS329-331RDS; E353K”, in test [1], the response (% of Positive cells) stood at 6.7.

Turning to Mink ACE2 E38A, the percent of parent (% relative to WT) in test [2] was found to be 44; in test [3] it was 30.

Turning to Pipistrellus abramus ACE2 P324Q, the percent of parent (% relative to WT) in test [1] stood at 29.

With Mink ACE2 D90N, the results for the percent of parent (% relative to WT) in test [2] and in test [3] were 38 and 44, respectively.

As to Mink ACE2 D355A, the percent of parent (% relative to WT) worked out at 80 in test [2] and 130 in test [3].

Consider Pipistrellus abramus ACE2 DPI90-92NLT, for which the percent of parent (% relative to WT) in test [1] was 100.

Mink ACE2 Y41A: the percent of parent (% relative to WT) in test [2] was 1; in test [3], 2.

Take “Pipistrellus pipistrellus ACE2 Q325P; E353K”: the response (% of Positive cells) in test [1] worked out at 0.45.

For the substance Pipistrellus abramus ACE2 N386K, in test [1], the percent of parent (% relative to WT) stood at 85.

With Pipistrellus pipistrellus ACE2 Q325P, the response (% of Positive cells) in test [1] is 0.8.
